Experimental data: PMC5735092 (Scientific Reports, 2017)
Some entries of the source have several records that differ or are many. They are shown here; other results are not. An entry can have further records. The values listed for one entry do not match, cause unknown; dose, time, organism, isomer or construct need not be as stated for each record.

Target: IMPα/β1:C (Mus musculus, UniProt P52293)
Experiment: AlphaScreen IMPα/β1:C binding assay
Details: read-out: IC50 ± SD, 15 nM IMPα/β1, 30 nM capsid

CC(=O)Nc1ccc(S(=O)(=O)Nc2ccc(C3(c4ccc(NS(=O)(=O)c5ccc(NC(C)=O)cc5)cc4)c4ccccc4-c4ccccc43)cc2)cc1 [AN-329/40863801]
IC50: < 12 µM and 5.2 µM
